The list shows a part of the results, in another mix than the full data. Some salts or complexes appear as unconnected parts, following the source record. Active and inactive are the calls of the source. No stated cut-off is given here; in the data, active means inhibition above about 11%; inactive means the rest.

One may read the inhibition as the drop in the measured response relative to a control, in per cent.

This assay is described as follows: growth loss of phage-infected E. coli, primary screen, RecBCD inhibitor project, absorbance, with phage, HTS (AID 651602). The conditions noted are these: at 11.9 µM, active compounds read high.
Consider `O=C(OCCN1CCN(CCOCc2ccccc2)CC1)C(O)(c1ccccc1)c1ccccc1`, for which the inhibition was inactive: 1.56%.
The result for `O=C(OC1CN2CCC1CC2)c1ccc([N+](=O)[O-])cc1` (stereo unspecified) reads inactive: 3.3%; that for `COc1ccc2c(c1O)-c1c(O)c(OC)cc3c1[C@H](C2)[N+](C)(C)CC3.O=[N+]([O-])c1cc([N+](=O)[O-])c([O-])c([N+](=O)[O-])c1[O-]`, inactive: 2.84%.
The same measure for `O=[N+]([O-])c1cc([N+](=O)[O-])c(Nc2ccc(Cl)cc2)c([N+](=O)[O-])c1`: inactive: -2.02%; for `CC(C)c1ccc(OP(C)(=O)Nc2ccc(SC(F)(F)F)cc2)cc1` (stereo unspecified): inactive: 2.45%; for `CP(=O)(Nc1ccccc1F)Oc1ccccc1` (stereo unspecified): inactive: -2.35%.
Turning to `CCN(CC)CCCOC(=O)C(O)(c1ccccc1)C1CCCCC1` (stereo unspecified), the inhibition is inactive: 0.7%.
In the case of `Cc1c([N+](=O)[O-])cc([N+](=O)[O-])c(Br)c1[N+](=O)[O-]`, the inhibition is inactive: 1.25%.
The result for `CCCCCOc1ccc(NP(C)(=O)Oc2ccc(Cl)cc2Cl)cc1` (stereo unspecified) reads inactive: 1.23%.
Regarding `O=[N+]([O-])c1cc([N+](=O)[O-])c(OC2CCCCC2O)c([N+](=O)[O-])c1` (stereo unspecified), the inhibition was inactive: 2.69%.
As for `CP(=O)(Nc1ccccc1)Oc1ccc(F)cc1` (stereo unspecified), the inhibition was inactive: 1.39%.
The result for `CCN(CC)CCCNc1ccccc1[N+](=O)[O-].O=[N+]([O-])c1cc([N+](=O)[O-])c(O)c([N+](=O)[O-])c1` reads inactive: 0.23%.
The result for `COc1ccc(OP(C)(=O)Nc2ccc(SC(F)(F)F)cc2)cc1` (stereo unspecified) reads inactive: 6.22%; that for `CCOC(=O)c1ccc(NP(C)(=O)Oc2ccc(F)cc2)cc1` (stereo unspecified), inactive: 1.19%; that for `O=[N+]([O-])c1cc([N+](=O)[O-])c(NCC2CCS(=O)(=O)C2)c([N+](=O)[O-])c1` (stereo unspecified), inactive: 3.25%.
The result for `Cc1cc(-c2cccc3ccccc23)c(C)cn1.O=[N+]([O-])c1cc([N+](=O)[O-])c(O)c([N+](=O)[O-])c1` reads inactive: 4.59%.
For `O=[N+]([O-])c1ccc(OP2(=O)COCCO2)cc1` (stereo unspecified), the inhibition was inactive: 1.91%.
The same measure for `Cc1c(C(c2ccc3c(c2)OCO3)c2c(C)n(C)n(-c3ccccc3)c2=O)c(=O)n(-c2ccccc2)n1C.O=[N+]([O-])c1cc([N+](=O)[O-])c(O)c([N+](=O)[O-])c1`: inactive: -1.23%; for `COc1ccc(OP(C)(=O)Nc2cccc(Br)c2)cc1` (stereo unspecified): inactive: 1.39%; for `COc1ccc(NP(C)(=O)Oc2ccccc2OC)cc1` (stereo unspecified): inactive: 3.1%.
The result for `CN(C)CCOC(=O)C(O)(c1ccccc1)C1CCCCC1` (stereo unspecified) reads inactive: -0.82%.
